Test system: SARS-CoV-2 Washington strain, Gamma (P.1) and Delta (B.1.617.2)

In the case of `Cc1ccc(NC2CNC2)cc1C(=O)N[C@H](C)c1cccc(-c2ccc(CNC3CCCC3)s2)c1` [Compound 10], the “activity against VOC Gamma (P.1) and Delta (B.1.617.2)” value is reported as “did not lose activity”.

Source: publication PMC11345844, “Non-Covalent Inhibitors of SARS-CoV-2 Papain-Like Protease (PLpro): In Vitro and In Vivo Antiviral Activity” (Journal of Medicinal Chemistry, 2024)
